Laboratory results published in patent publication US8575208B2, “Inhibitors of serine proteases” (priority 2007, dated 2013).
The match of structure and compound is tentative.

The chains behind the UniProt entries cited, without tags or fusion partners. Residues count along the entry.
UniProt Q9WMX2, 1027-1657 limits assumed: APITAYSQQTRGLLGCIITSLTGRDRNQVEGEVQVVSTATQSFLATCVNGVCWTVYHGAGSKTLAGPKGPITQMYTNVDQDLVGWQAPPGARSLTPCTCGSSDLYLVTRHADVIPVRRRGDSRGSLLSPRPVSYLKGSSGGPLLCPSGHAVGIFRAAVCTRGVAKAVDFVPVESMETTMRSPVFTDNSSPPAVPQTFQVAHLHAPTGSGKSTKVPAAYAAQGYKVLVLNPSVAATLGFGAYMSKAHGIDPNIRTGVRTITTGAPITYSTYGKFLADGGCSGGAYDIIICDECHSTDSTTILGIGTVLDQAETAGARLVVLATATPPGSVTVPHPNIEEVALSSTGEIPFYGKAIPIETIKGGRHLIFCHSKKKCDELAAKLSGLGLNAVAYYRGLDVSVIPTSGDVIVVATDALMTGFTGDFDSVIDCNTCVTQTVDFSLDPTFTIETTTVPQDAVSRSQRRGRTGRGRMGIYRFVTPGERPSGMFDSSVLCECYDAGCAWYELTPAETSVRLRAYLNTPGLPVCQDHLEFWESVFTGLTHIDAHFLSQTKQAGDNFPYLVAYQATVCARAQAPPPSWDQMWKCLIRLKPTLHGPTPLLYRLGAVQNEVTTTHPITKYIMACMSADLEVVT

Biological target: HCV NS3 serine protease (UniProt Q9WMX2)
Test: HCV enzymatic assay (HCV NS3 peptide cleavage assays, apparent Ki)
Format: biochemical, hepatitis C virus
Details: read-out: Activity (HCV enzymatic assay activity); serine protease activity measured using the HCV Enzyme Assays; Assay No. 1 / Assay No. 2 not given
Protocol: This assay is a modification of that described by Landro, et al. (Landro J A, Raybuck S A, Luong Y C, O'Malley E T, Harbeson S L, Morgenstern K A, Rao G and Livingston D L. Biochemistry 1997, 36, 9340-9348), and uses a peptide substrate (NS5AB), based on the NS5A/NS5B cleavage site for genotype la HCV. The substrate stock solution (25 mM) was prepared in DMSO containing 0.2 M DTT and stored at −20° C. A synthetic peptide cofactor (KK4A) was used as a substitute for the central core region of NS4A. […]
The SMSY product was separated from substrate and KK4A using a microbore separation method. […] The SMSY product peak was quantitated using the data collected at […]. […]
Enzymatic activity was assessed by separation of substrate and products by reverse phase HPLC. The instrument used was a Agilent 1100 with a G1322A degasser, either a G1312A binary pump or a G1311A quaternary pump, a G1313A autosampler, a G1316A column thermostated chamber, a G1321A fluorescence detector and a G1315A diode array detector. […] The C-terminal product peak (NH2-SMSY-COOH) was quantitated using the absorbance data collected at 210 ηm. […] The C-terminal product peak (NH2-SMSYT-Asp(EDANS)-KKK-COOH) was quantitated using the fluorescence data collected at 350 ηm excitation/490 ηm emission. […]

CCC[C@H](NC(=O)[C@@H]1C[C@@]2(CN(c3ccccc3)C(=O)O2)CN1C(=O)[C@@H](NC(=O)CC1CCCCC1)C(C)(C)C)C(=O)C(=O)NC1CC1
Ki: < 410 nM
